Values quoted from earlier work in patent publication US5686417A, “Peptide T and related peptides in the treatment of HTLV-1 myelopathy and multiple sclerosis” (Reed MacFadden, Ltd., priority 1995, dated 1997).

Conditions: in vivo; cited from earlier work

C[C@@H](N)C(=O)N[C@@H](CO)C(=O)N[C@H](C(=O)N[C@H](C(=O)N[C@H](C(=O)N[C@@H](CC(N)=O)C(=O)N[C@@H](Cc1ccc(O)cc1)C(=O)N[C@H](C(N)=O)[C@@H](C)O)[C@@H](C)O)[C@@H](C)O)[C@@H](C)O [Peptide T, D-Ala-Ser-Thr-Thr-Thr-Asn-Tyr-Thr- Amide]
transport from the blood to the brain: active, saturable transport system
